For the assay, the target named is BG505 SOSIP.664 trimer (HIV-1) (UniProt Q2N0S6). In words: negative-stain EM, single-particle 2D classification; in solution; 90 nM trimer incubated 1 h with 600 nM VRC01 Fab, then overnight with 600 nM sCD4; ambient conditions; particles counted in 2D class averages.

Regarding “soluble CD4 (from UniProt P01730 26-396) (receptor)”, the percent of particles in mixed sCD4-VRC01 classes is 16% and the percent of particles in the sCD4-bound open trimer class was found to be 70%.
